# Assay results: ChEMBL document CHEMBL1155211, “Synthesis of organophosphates with fluorine-containing leaving groups as serine esterase inhibitors with potential for Alzheimer disease therapeutics” (2009)
# Amino acid sequences for entries named in this document (tags omitted). Residues count along the entry.
# UniProt Q29550, 19-566 limits assumed: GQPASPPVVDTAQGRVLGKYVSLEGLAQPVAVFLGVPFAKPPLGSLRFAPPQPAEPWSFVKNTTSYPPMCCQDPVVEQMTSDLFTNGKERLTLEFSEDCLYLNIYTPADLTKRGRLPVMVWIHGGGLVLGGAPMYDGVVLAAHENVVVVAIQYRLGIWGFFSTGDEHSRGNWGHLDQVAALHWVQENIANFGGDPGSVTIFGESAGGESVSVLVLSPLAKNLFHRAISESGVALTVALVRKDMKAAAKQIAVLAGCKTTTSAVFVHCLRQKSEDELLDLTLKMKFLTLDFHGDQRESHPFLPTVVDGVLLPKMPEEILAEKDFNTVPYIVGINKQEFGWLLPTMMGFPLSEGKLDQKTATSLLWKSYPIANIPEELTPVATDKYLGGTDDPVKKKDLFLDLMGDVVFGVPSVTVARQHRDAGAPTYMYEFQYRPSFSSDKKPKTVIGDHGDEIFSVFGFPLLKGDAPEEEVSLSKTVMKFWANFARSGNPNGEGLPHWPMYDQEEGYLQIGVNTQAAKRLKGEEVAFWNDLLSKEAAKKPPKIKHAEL
# Biological target: Liver carboxylesterase (Sus scrofa, UniProt Q29550)
# Experiment: Inhibition of pig liver carboxylesterase by Lineweaver-Burke analysis
row,SMILES,Ki [µM]
1,COP(=O)(OC)OC(c1ccccc1)C(F)(F)F (stereo not drawn),6.64
2,CCCCOP(=O)(OCCCC)OC(c1ccccc1)C(F)(F)F (stereo not drawn),0.156
3,CCOP(=O)(OCC)OC(c1ccccc1)C(F)(F)F (stereo not drawn),3.33
